Compound potency records, mixed from different reports. Data source: NIAID ChemDB in PubChem.

All rows: whole-cell or culture tests; organism: HIV-1; endpoint: EC50

Lines come from different laboratories, so protocols vary. Blank or dashed fields: not listed here. ECn is the concentration giving n% inhibition of infection, replication or growth.

structure | cells | changes | conditions | method | strain or isolate | value
CC(C)OC(=S)Nc1ccc(Cl)c(C(=O)O)c1 | CEM | - | - | syncytia | IIIB | >36.53 µM
COC(=O)c1cccc(Cn2ccc3cc(F)c(-c4ccc5ccn(Cc6cccc(C(=O)O)c6)c5c4)cc32)c1 | TZM-bl + HL2/3 | - | - | cell fusion / luminescence | HXB2 | 0.4 µM
Cc1cc(C)cc(C(=O)c2c(C(C)C)c(=O)[nH]c(=O)n2Cc2ccnc(C#N)c2)c1 | MT-4 | - | - | cytopathic effect / MTT | - | 0.0016 µg/mL
CC1=C(C(=O)Nc2ccc(Cl)c(C(=O)OC(C)C)c2)SCCO1 | CEM | - | - | syncytia | IIIB | 0.042 µM
CSCCOC(=S)Nc1ccc(Cl)c(C(=O)OC(C)C)c1 | CEM | RT-V106A | - | syncytia | - | 15.81 µM
COC(=O)c1cc(C(F)(F)F)c2c(OC)cc(N)cc2n1 | - | - | - | p24 | - | 0.89 µg/mL
CCC(CC)OC(=O)c1cc(NC(=S)OC(C)C)ccc1Cl | CEM | RT-V106A | - | syncytia | - | 11.63 µM
O=S(=O)(c1cccc2cnccc12)N1CCNCC1 | MT-4 | - | - | cytopathic effect / MTT | IIIB | >14.8 µg/mL
CSC(=Nc1ccc(Cl)c(C(=O)OC(C)C)c1)OC(C)C | CEM | RT-E138K | - | syncytia | - | >30.13 µM
O=C(O)c1cn(-c2ccccc2N2CCOCC2)c2c(Cl)c(N3CCN(c4ccc(F)cc4)CC3)c(F)cc2c1=O | PBL | - | - | syncytia | - | 0.6 µM
Cc1occc1C(=S)Nc1ccc(Cl)c(/C=N/OC(C)(C)C)c1 | CEM | RT-Y181C | - | syncytia | IIIB | 0.214 µM
CCC(C)OC(=O)c1cc(NC(=S)OC(C)C)ccc1Cl | CEM | RT-Y181C | - | syncytia | - | 2.577 µM
CN1N=C(N)c2cn([C@@H]3O[C@H](COP(=O)(O)O)[C@@H](O)[C@H]3O)c3ncnc1c23 | PBL | - | - | RT activity | IIIB | 3 µM
O=C(O)c1cn(-c2cccc(N3CCOCC3)c2)c2cc(N3CCN(c4ccccc4)CC3)c(F)cc2c1=O | PBL | - | - | syncytia | - | 0.6 µM
O=P(O)(O)OP(=O)(O)OP(=O)(O)OP(=O)(O)O | H9 | - | - | p24 | IIIB | >100 µg/mL
O=C(O)c1cn(-c2ccccc2N2CCOCC2)c2cc(N3CCN(c4ccc(F)cc4)CC3)c(F)cc2c1=O | PBL | - | - | syncytia | - | 0.7 µM
COc1cc(OC)c2c(=O)c3ccccc3n(C)c2c1 | OM-10.1 | - | - | p24 / ELISA | IIIB | 3.2 µg/mL
Cc1ccc(NC(=O)CN2CCN(Cc3nc(-c4ccc(F)cc4)no3)CC2)cc1 | PBMC | - | - | RT activity | CMU08 | 11.7 µM
COC(=O)c1cc2c(OC)c(CC=C(C)C)c(N)cc2[nH]1 | - | - | - | p24 | - | 0.13 µg/mL
CC(C)=CCOc1cc(NC(=S)c2ccsc2C)ccc1Cl | CEM + CEM-SS | RT-Y181C | - | cytopathic effect / XTT | UC82-R (RT-Y181C) | 0.2 µM
Cc1cn(CCC[Si](C)(O)c2ccccc2)c(=O)[nH]c1=O | MT-2 | - | - | MTT | IIIB | 25 µM
CC(C)O/N=C/c1cc(NC(=S)OC(C)C)ccc1Cl | CEM | RT-Y181C | - | syncytia | - | 1.061 µM
O=C(O)c1cn(-c2cccc(N3CCOCC3)c2)c2c(Cl)c(N3CCN(c4ccccc4)CC3)c(F)cc2c1=O | PBL | - | - | syncytia | - | 0.4 µM
CCC(C)OC(=S)Nc1ccc(Cl)c(C(=O)OC(C)(C)C)c1 | CEM | RT-Y181C | - | syncytia | - | 1.454 µM
COC(=O)c1cc2c(OC)cc(N)cc2[nH]1 | - | - | - | p24 | - | 1.09 µg/mL
CC(C)OC(=S)Nc1ccc(Cl)c(C(=O)OC2(C)COC2)c1 | CEM | - | - | syncytia | IIIB | 0.145 µM
CC1(C)CC=C(c2cn(-c3nccc(C(=O)NC4CCC(N5CC6CCC(C5)O6)CC4)n3)c3ccc(F)c([C@H](OC(C)(C)C)C(=O)O)c23)CC1 | MT-4 | K173R | - | luminescence | NL4-3 | 0.006 µM
CCc1c(C(=O)c2cc(C)cc(C)c2)n(Cc2ccc(OC)cc2)c(=O)[nH]c1=O | MT-4 | - | - | cytopathic effect / MTT | - | 0.002 µg/mL
CCCCC(CC)COC(=O)c1cc(NC(=S)OC(C)C)ccc1Cl | CEM | RT-L100I | - | syncytia | - | 22.02 µM
Cn1c2ccccc2c(=O)c2c(O)cccc21 | U-937 | - | - | p24 / ELISA | IIIB | 7 µg/mL
CC(C)c1c(C(=O)c2ccccc2)n(Cc2ccncc2)c(=O)[nH]c1=O | MT-4 | - | - | cytopathic effect / MTT | - | 0.014 µg/mL
CCCSC(=Nc1ccc(Cl)c(C(=O)OC(C)C)c1)OC(C)C | CEM | - | - | syncytia | IIIB | 1.81 µM
Cc1ccc(-c2ccc(NC(=O)N3CCC4(CCO4)CC3)cc2)cc1 | TZM-bl | - | pseudotyped | luminescence | CE0217 | >30 µM
Cc1nc2ccccc2c(-c2cc(F)c3c(c2C)CCCO3)c1[C@H](OC(C)(C)C)C(=O)O | MT-4 | T125V | - | luminescence | NL4-3 | 0.011 µM
COC(=O)c1cc(NC(=S)OC(C)C)ccc1Cl | CEM | RT-V106A | - | syncytia | - | ≥34.75 µM
COC(=O)Cc1ccc2c(OC)cc(N)cc2n1 | - | - | - | p24 | - | 0.34 µg/mL
CC(C)OC(=S)Nc1ccc(Cl)c(COC(C)(C)C)c1 | CEM | - | - | syncytia | IIIB | 14.25 µM
COc1ccc(O)c2c(=O)c3ccccc3n(C)c12 | OM-10.1 | - | - | p24 / ELISA | IIIB | >16 µg/mL
CC(C)CN(C[C@@H](O)[C@H](Cc1ccccc1)NC(=O)O[C@H]1CO[C@H]2OCC[C@H]21)S(=O)(=O)c1ccc2nc(NC3CCN(C4CCCC4)CC3)sc2c1 | MT-4 | - | - | reporter gene | r13205 | 26 nM
CC(C)(C)OC(=O)c1cccc(Cn2ccc3ccc(-c4ccc5ccn(Cc6cccc(C(=O)O)c6)c5c4)cc32)c1 | MAGI-CCR5 | - | - | entry / luminescence | BaL | 0.2 µM
CC[C@H](C)OC(=S)Nc1ccc(Cl)c(C(=O)OC(C)C)c1 | CEM | - | - | syncytia | IIIB | 0.091 µM
CC1(C)Oc2ccc3ccc(=O)oc3c2[C@@H](OC(=O)C23CCC(C)(C(=O)O2)C3(C)C)[C@H]1OC(=O)C12CCC(C)(C(=O)O1)C2(C)C | MT-4 | - | - | p24 | HXB2 | 0.09 µM
C=CCOC(=S)Nc1ccc(Cl)c(C(=O)OC(C)C)c1 | CEM | RT-V106A | - | syncytia | - | 20.71 µM
CCc1c(C(=O)c2cc(F)cc(F)c2)n(Cc2cccnc2)c(=O)[nH]c1=O | MT-4 | - | - | cytopathic effect / MTT | - | 0.112 µg/mL
CC(C)OC(=S)Nc1ccc(Cl)c(C(=O)SC(C)C)c1 | CEM | RT-L100I | - | syncytia | - | 1.657 µM
CC(C)=CCOc1cc(NC(=S)c2ccoc2C)ccc1Cl | CEM + CEM-SS | RT-M184I | - | cytopathic effect / XTT | 3TC-RS (RT-M184I) | 0.03 µM
CC(=O)OCCOC(=O)c1cc(NC(=S)OC(C)C)ccc1Cl | CEM | - | - | syncytia | IIIB | 2.779 µM
C[Si](O)(O[Si](C)(CCCn1cnc2c(N)ncnc21)c1ccccc1)c1ccccc1 | PBMC | - | - | RT activity | IIIB | 6 µM
Cc1cc(Cn2c(C(=O)c3cc(F)cc(F)c3)c(C(C)C)c(=O)[nH]c2=O)cc(C)n1 | MT-4 | - | - | cytopathic effect / MTT | - | 0.0044 µg/mL
CNc1ccccc1C(=O)NCCC[Si](C)(C)O[Si](C)(C)CCCNC(=O)c1ccccc1NC | MT-2 | - | - | MTT | IIIB | 9 µM
CC(C)(C)OC(=O)c1cc(NC(=S)OC(C)(C)C)ccc1Cl | CEM | - | - | syncytia | IIIB | 1.89 µM

Repeating the first 6 entries:

structure | cells | changes | conditions | method | strain or isolate | value
CC(C)OC(=S)Nc1ccc(Cl)c(C(=O)O)c1 | CEM | - | - | syncytia | IIIB | >36.53 µM
COC(=O)c1cccc(Cn2ccc3cc(F)c(-c4ccc5ccn(Cc6cccc(C(=O)O)c6)c5c4)cc32)c1 | TZM-bl + HL2/3 | - | - | cell fusion / luminescence | HXB2 | 0.4 µM
Cc1cc(C)cc(C(=O)c2c(C(C)C)c(=O)[nH]c(=O)n2Cc2ccnc(C#N)c2)c1 | MT-4 | - | - | cytopathic effect / MTT | - | 0.0016 µg/mL
CC1=C(C(=O)Nc2ccc(Cl)c(C(=O)OC(C)C)c2)SCCO1 | CEM | - | - | syncytia | IIIB | 0.042 µM
CSCCOC(=S)Nc1ccc(Cl)c(C(=O)OC(C)C)c1 | CEM | RT-V106A | - | syncytia | - | 15.81 µM
COC(=O)c1cc(C(F)(F)F)c2c(OC)cc(N)cc2n1 | - | - | - | p24 | - | 0.89 µg/mL